Anti-infective test results gathered from many reports (values: NIAID ChemDB through PubChem).

Common to all: target-level tests; agent: HIV-1; target: Reverse transcriptase; endpoint: fold resistance

Neighbouring rows are from separate reports. a–b is a range or a potency band. Fold resistance has wild type as its base.

{"compound": "CCOc1ccccc1N1CCN(C(=O)c2cc3cc4c(cc3[nH]2)OCO4)CC1", "strain": "IIIB", "mutations": "RT-P236L", "result": ">8.93"}
{"compound": "CC(C)=CCOc1cc(NC(=S)c2ccoc2C)ccc1Cl", "mutations": "RT-L100I", "result": "3.19"}
{"compound": "CC(C)=CCN1Cc2cccc3[nH]c(=S)n(c23)C[C@@H]1C", "mutations": "RT-E89G", "method": "nucleotide incorporation / radiometric", "result": "10"}
{"compound": "CCN1c2ncc(CCOc3ccc(S(N)(=O)=O)c4ccccc34)cc2C(=O)N(C)c2cccnc21", "mutations": "RT-V106A", "method": "nucleotide incorporation / radiometric", "result": "1–10"}
{"compound": "OCc1cn(Cc2ccncc2)c(Sc2cc(Cl)cc(Cl)c2)c1C1CCC1", "mutations": "RT-Y181I", "method": "nucleotide incorporation / radiometric", "result": "130"}
{"compound": "CCN1c2ncc(CCOc3ccc(C(=O)O)c4ccccc34)cc2C(=O)N(C)c2ccc(Cl)nc21", "mutations": "RT-Y188L", "method": "nucleotide incorporation / radiometric", "result": "1–10"}
{"compound": "Cc1c(Sc2ccccc2)n(COCCO)c(=O)[nH]c1=O", "mutations": "RT-Y188L", "result": ">10"}
{"compound": "Cc1c(Cc2ccc(F)cc2)nc(SCc2ccc([N+](=O)[O-])cc2)[nH]c1=O", "mutations": "RT-181I", "method": "nucleotide incorporation / radiometric", "result": "~1"}
{"compound": "O=C(O)Cn1cnc2c(Oc3ccccc3[N+](=O)[O-])nc(NC(=O)OCc3ccccc3)nc21", "strain": "NNRTI-resistant", "mutations": "Y188L", "method": "nucleotide incorporation / radiometric", "result": "11.6"}
{"compound": "CC(C)=CCN1Cc2cccc3[nH]c(=S)n(c23)C[C@@H]1C", "mutations": "RT-T181C", "method": "RT activity", "result": "17"}
{"compound": "Cc1cn([C@H]2C=C[C@@H](COP(=O)(O)OP(=O)(O)OP(=O)(O)O)O2)c(=O)[nH]c1=O", "mutations": "RT-A62V V75I F77L F116Y Q151M", "method": "nucleotide incorporation / radiometric", "result": "10"}
{"compound": "Cc1cc(C)cc(S(=O)(=O)c2c(C(=O)NNCCO)[nH]c3ccc(Cl)cc23)c1", "mutations": "RT-K103N", "method": "nucleotide incorporation / radiometric", "result": "17"}
{"compound": "Cc1cn([C@H]2C=C[C@@H](COP(=O)(O)OP(=O)(O)OP(=O)(O)O)O2)c(=O)[nH]c1=O", "mutations": "RT-I132M", "method": "nucleotide incorporation / radiometric", "result": "0.6"}
{"compound": "Cc1cc(S(N)(=O)=O)ccc1NC(=O)COc1ccc(Cl)cc1C(=O)c1cc(Cl)cc(C#N)c1", "mutations": "RT-E138K", "method": "fluorescence", "result": "2.33"}
{"compound": "CCOc1cccc(C2(CC)Oc3ccccc3-n3cccc3C2=O)c1", "mutations": "RT-K103N", "method": "nucleotide incorporation / radiometric", "result": "4.6"}
{"compound": "Cc1cc(SC2=C(O)C[C@@](CCc3ccc(N)cc3)(C(C)C)OC2=O)c(C(C)(C)C)cc1CO", "mutations": "RT-I84V", "method": "HPLC / absorbance", "result": "2.6"}
{"compound": "CCN1c2ncc(CCOc3ccc(CCC(=O)O)c4ccccc34)cc2C(=O)N(C)c2ccc(C)nc21", "mutations": "RT-V106A", "method": "nucleotide incorporation / radiometric", "result": ">10"}
{"compound": "Cc1c(Sc2ccccc2)n(COCCO)c(=O)[nH]c1=O", "mutations": "RT-Y188L", "method": "nucleotide incorporation", "result": ">100"}
{"compound": "Nc1ncnc2c1ncn2CCOCP(=O)(O)OP(=O)(O)OP(=O)(O)O", "mutations": "RT-K65R", "method": "nucleotide incorporation / radiometric", "result": "8.1"}
{"compound": "CCCN(C)C(=O)Oc1nsnc1-c1c(Cl)cccc1Cl", "strain": "IIIB-R (RT-Y181C)", "mutations": "RT-Y181C", "method": "nucleotide incorporation", "result": "209"}
{"compound": "O=C1c2ccncc2C(=O)N1CCNC(=S)Nc1ccc(Br)cn1", "mutations": "RT-V106A", "method": "nucleotide incorporation", "result": "20.6"}
{"compound": "CCc1c(Sc2ccccn2)n(COCc2ccccc2)c(=O)[nH]c1=O", "mutations": "RT-V106A", "result": "5"}
{"compound": "Cc1c(C(C)c2c(F)cccc2F)nc(N2CCOCC2)[nH]c1=O", "strain": "IIIB", "mutations": "RT-V106A", "method": "nucleotide incorporation / radiometric", "result": ">6670"}
{"compound": "CCc1c([Se]c2ccccc2)n(COCc2ccccc2)c(=O)[nH]c1=O", "mutations": "RT-T181C", "method": "RT activity", "result": "24"}
{"compound": "Cc1cn([C@@H]2O[C@H](CO[Si](C)(C)C(C)(C)C)C3(OS(=O)(=O)C=C3N)[C@H]2O[Si](C)(C)C(C)(C)C)c(=O)n(C)c1=O", "strain": "IIIB", "mutations": "RT-V106A", "method": "RT activity", "result": ">83.3"}
{"compound": "CCC1(c2ccc(COc3ccccc3)cc2)Oc2ccccc2-n2cccc2C1=O", "mutations": "RT-Y188L", "method": "nucleotide incorporation / radiometric", "result": "15.3"}
{"compound": "Cc1cn([C@H]2CC[C@@H](COP(=O)(O)OP(=O)(O)OP(=O)(O)O)O2)c(=O)[nH]c1=O", "mutations": "RT-Y181I", "method": "RT activity", "result": "3.5"}
{"compound": "Nc1ncnc2c1ncn2[C@@H]1O[C@H](COP(=O)(O)OP(=O)(O)OP(=O)(O)O)C[C@@H]1F", "mutations": "RT-Q151M", "method": "nucleotide incorporation", "result": "1.5"}
{"compound": "CN(C)C(=O)Oc1nsnc1-c1c(Cl)cccc1Cl", "strain": "IIIB-R (RT-Y181C)", "mutations": "RT-Y181C", "method": "nucleotide incorporation", "result": ">39.2"}
{"compound": "CCN1c2ncc(CCOc3ccc(CC(C)C(=O)O)c4ccccc34)cc2C(=O)Nc2c(C)cc(Cl)nc21", "mutations": "RT-Y188L", "method": "nucleotide incorporation / radiometric", "result": ">10"}
{"compound": "O=c1c2cccn2c2cc(Cl)c(Cl)cc2n1CCNC(=S)Nc1ccc(Br)cn1", "mutations": "RT-V106A", "method": "nucleotide incorporation", "result": "1"}
{"compound": "CCC1(c2cccc(N)c2)Oc2ccccc2-n2cccc2C1=O", "mutations": "RT-V106A", "method": "nucleotide incorporation / radiometric", "result": "5.3"}
{"compound": "Nc1nc2c(ncn2[C@H]2C[C@H](O)[C@@H](COP(=O)(O)OP(=O)(O)OP(=O)(O)O)O2)c(=O)[nH]1", "mutations": "RT-A62V V75I F77L F116Y Q151M", "method": "nucleotide incorporation / radiometric", "result": "0.55"}
{"compound": "CCC1(c2cccc(COc3ccccc3)c2)Oc2ccccc2-n2cccc2C1=O", "mutations": "RT-Y188L", "method": "nucleotide incorporation / radiometric", "result": "12.5"}
{"compound": "CCN1c2ncc(CCOc3ccc(C(=O)O)c4ccccc34)cc2C(=O)Nc2c(C)cc(Cl)nc21", "mutations": "RT-V106A", "method": "nucleotide incorporation / radiometric", "result": "1–10"}
{"compound": "Cc1c(Cc2c(Cl)cccc2Cl)nc(SCc2ccc3c(c2)C(=O)c2ccccc2C3=O)[nH]c1=O", "mutations": "RT-181I", "method": "nucleotide incorporation / radiometric", "result": ">114"}
{"compound": "CCc1c(Sc2ccccc2)n(COCc2ccccc2)c(=O)[nH]c1=O", "mutations": "RT-T181C", "method": "RT activity", "result": "96"}
{"compound": "CCc1cc(CCc2nc3ccccc3o2)c(=S)[nH]c1C", "mutations": "RT-K103N", "method": "nucleotide incorporation", "result": "19"}
{"compound": "NC(=O)OCc1cn(Cc2ccncc2)c(Sc2cc(Cl)cc(Cl)c2)c1C1CCC1", "mutations": "RT-L100I", "method": "nucleotide incorporation / radiometric", "result": "347.5"}
{"compound": "O=c1cnc2ccccc2n1CCNC(=S)Nc1ccc(Br)cn1", "mutations": "RT-Y181I", "method": "nucleotide incorporation", "result": "10"}
{"compound": "Cc1c(C(C)c2c(F)cccc2F)nc(SC2CCCC2)[nH]c1=O", "mutations": "RT-Y181I", "method": "nucleotide incorporation / radiometric", "result": "180"}
{"compound": "Nc1ccn([C@H]2CC[C@@H](COP(=O)(O)OP(=O)(O)OP(=O)(O)O)O2)c(=O)n1", "mutations": "RT-T215Y", "method": "nucleotide incorporation / radiometric", "result": "2.3"}
{"compound": "C#C[C@@]1(COP(=O)(O)OP(=O)(O)OP(=O)(O)O)CC[C@H](n2ccc(N)nc2=O)O1", "mutations": "RT-M184V", "method": "nucleotide incorporation / radiometric", "result": "4"}
{"compound": "C/C=C/CSc1cc(NC(=S)c2ccsc2C)ccc1Cl", "mutations": "RT-L100I", "result": "1.27"}
{"compound": "Cc1cc(SC2=C(O)CC(CCc3ccc(O)cc3)(C3CCCCC3)OC2=O)c(C(C)(C)C)cc1CO", "mutations": "RT-I84V", "method": "HPLC / absorbance", "result": "20"}
{"compound": "CC(C)=CCOc1cc(NC(=S)c2ccoc2C)ccc1Cl", "mutations": "RT-P225H", "method": "nucleotide incorporation / radiometric", "result": "3.9"}
{"compound": "Nc1ncnc2c1ncn2[C@H]1CC[C@@H](COP(=O)(O)OP(=O)(O)OP(=O)(O)O)O1", "mutations": "RT-A62V V75I F77L F116Y Q151M", "method": "nucleotide incorporation", "result": "8.6"}
{"compound": "Cc1cn([C@@H]2O[C@H](CO[Si](C)(C)C(C)(C)C)C3(OS(=O)(=O)C=C3N)[C@H]2O[Si](C)(C)C(C)(C)C)c(=O)n(C)c1=O", "mutations": "RT-E138K", "result": "38.5"}
{"compound": "CCC1(c2cccc(I)c2)Oc2ccccc2-n2cccc2C1=O", "mutations": "RT-V106A", "method": "nucleotide incorporation / radiometric", "result": "2.6"}
{"compound": "CC(C)Nc1cccnc1N1CCN(C(=O)c2cc3cc4c(cc3[nH]2)OCO4)CC1", "strain": "IIIB", "mutations": "RT-Y181C", "result": "19"}
{"compound": "O=C(O)Cn1cnc2c(=O)[nH]c(NC(=O)OCc3ccccc3)nc21", "strain": "NNRTI-resistant", "mutations": "Y188L", "method": "nucleotide incorporation / radiometric", "result": "5.47"}
{"compound": "CCOc1ccccc1N1CCN(C(=O)c2cc3ccccc3[nH]2)CC1", "strain": "IIIB", "mutations": "RT-Y181C", "result": ">6"}
{"compound": "O=C(Nc1nnc(-c2ccc3c(c2)CCCC3)o1)C1=COCCO1", "strain": "NL4-3", "mutations": "K103N/Y181C", "method": "RT activity / nucleotide incorporation / luminescence", "result": "10"}
{"compound": "C=C(CC(=O)O)c1ccc(OCCc2cnc3c(c2)C(=O)N(C)c2cccnc2N3CC)c2ccccc12", "mutations": "RT-V106A", "method": "nucleotide incorporation / radiometric", "result": ">10"}
{"compound": "CN(c1ncccc1CO)C1CCN(C(=O)c2cc3cc(NS(C)(=O)=O)ccc3[nH]2)CC1", "strain": "IIIB", "mutations": "RT-Y181C", "method": "nucleotide incorporation", "result": "~3.5"}
{"compound": "Cc1cn([C@H]2C=C[C@@H](COP(=O)(O)OP(=O)(O)OP(=O)(O)O)O2)c(=O)[nH]c1=O", "mutations": "RT-Q161L H208Y", "result": "27"}
{"compound": "CCCCN(C)C(=O)Oc1nsnc1-c1c(Cl)cccc1Cl", "strain": "IIIB-R (RT-Y181C)", "mutations": "RT-Y181C", "method": "nucleotide incorporation", "result": "34.4"}
{"compound": "CC(C)=CCN1Cc2cc(Cl)cc3[nH]c(=O)n(c23)C[C@@H]1C", "mutations": "RT-V106A", "method": "nucleotide incorporation / radiometric", "result": "12"}
{"compound": "CCC1(c2cccc(Cl)c2)Oc2ccccc2-n2cccc2C1=O", "mutations": "RT-Y181I", "method": "nucleotide incorporation / radiometric", "result": "22.2"}
{"compound": "CN(C)c1nc(Cc2c(F)cccc2F)cc(=O)[nH]1", "strain": "IIIB", "mutations": "RT-K103N", "method": "nucleotide incorporation / radiometric", "result": "37.5"}
{"compound": "COc1ccc(CSc2nc(Cc3ccc(F)cc3)c(C)c(=O)[nH]2)cc1", "mutations": "RT-K103N", "method": "nucleotide incorporation / radiometric", "result": "~1"}
{"compound": "CCNc1cccnc1N1CCN(C(=O)c2cc3cc4c(cc3[nH]2)OCO4)CC1", "strain": "IIIB", "mutations": "RT-Y181C", "result": "45"}
{"compound": "CCOc1ccc(CSc2nc(Cc3c(Cl)cccc3Cl)c(C)c(=O)[nH]2)cc1", "mutations": "RT-K103N", "method": "nucleotide incorporation / radiometric", "result": ">200"}
{"compound": "Cc1occc1C(=S)Nc1ccc(Cl)c(/C=N/OC(C)(C)C)c1", "mutations": "RT-L100I", "result": "4.55"}
{"compound": "CCN1c2ncc(CCOc3ccc(CCC(=O)NN)c4ccccc34)cc2C(=O)N(C)c2cccnc21", "mutations": "RT-V106A", "method": "nucleotide incorporation / radiometric", "result": "1–10"}
{"compound": "O=c1c2cccn2c2ccccc2n1CCNC(=S)Nc1ccc(Br)cn1", "mutations": "RT-K103N", "method": "nucleotide incorporation", "result": "1.72"}
{"compound": "CCOCn1c(Cc2ccccc2)c(C(C)C)c(=O)[nH]c1=O", "mutations": "RT-P225H", "method": "nucleotide incorporation / radiometric", "result": "4.1"}

The last 5 rows once more:

CCOc1ccc(CSc2nc(Cc3c(Cl)cccc3Cl)c(C)c(=O)[nH]2)cc1 ; mutations: RT-K103N ; method: nucleotide incorporation / radiometric ; result: >200
Cc1occc1C(=S)Nc1ccc(Cl)c(/C=N/OC(C)(C)C)c1 ; mutations: RT-L100I ; result: 4.55
CCN1c2ncc(CCOc3ccc(CCC(=O)NN)c4ccccc34)cc2C(=O)N(C)c2cccnc21 ; mutations: RT-V106A ; method: nucleotide incorporation / radiometric ; result: 1–10
O=c1c2cccn2c2ccccc2n1CCNC(=S)Nc1ccc(Br)cn1 ; mutations: RT-K103N ; method: nucleotide incorporation ; result: 1.72
CCOCn1c(Cc2ccccc2)c(C(C)C)c(=O)[nH]c1=O ; mutations: RT-P225H ; method: nucleotide incorporation / radiometric ; result: 4.1